Target: the molecule itself
Assay: cross-linking

B1: M1-V97K (full-length PR8 M1 with V97K) (natural protein)
chain: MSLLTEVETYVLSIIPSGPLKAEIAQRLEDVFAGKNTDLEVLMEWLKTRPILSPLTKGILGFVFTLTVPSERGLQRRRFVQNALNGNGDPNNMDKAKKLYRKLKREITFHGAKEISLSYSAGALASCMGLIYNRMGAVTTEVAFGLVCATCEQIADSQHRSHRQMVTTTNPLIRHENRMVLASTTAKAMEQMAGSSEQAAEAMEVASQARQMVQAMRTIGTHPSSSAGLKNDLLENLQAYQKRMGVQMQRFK
  binding result: binds

From paper PMC7549809, “Full-length three-dimensional structure of the influenza A virus M1 protein and its organization into a matrix layer” (PLoS Biology, 2020)
